Compound potency records, mixed from different reports. Data source: NIAID ChemDB in PubChem.

All rows: growth or infection tests; species: HIV-2

ECn is the concentration giving n% inhibition of infection, replication or growth. An empty or dashed field is not shown. Conditions beyond the fields shown may differ between rows.

structure | method | cells | read-out | strain or isolate | value
COC(=O)[C@H](C)OP(=O)(OC[C@@H]1C=C[C@H](n2cc(C)c(=O)[nH]c2=O)O1)Oc1ccccc1 | cytopathic effect | CEM | EC50 | LAV-2 | 50 µM
COc1ccc(S(=O)(=O)N(CC(C)C)C[C@@H](O)[C@H](Cc2ccccc2)NC(=O)O[C@H]2CO[C@@H]3O[C@H]4OCC[C@H]4[C@@H]32)cc1 | MTT | MT-2 | EC50 | ROD | 0.4 µM
N#Cc1ccc(Nc2nc(Oc3ccc(-c4ccc(C#N)cc4)c(Cl)c3)c3sccc3n2)cc1 | MTT | MT-4 | EC50 | ROD | 75.8 µM
CCCc1cc(=O)oc2c3c(c4c(c12)OC(C)(C)C=C4)O[C@H](C)[C@@H](C)[C@@H]3O | cytopathic effect / XTT | CEM + CEM-SS | EC50 |  | >2.7 µM
Fc1cccc(F)c1C1OCc2nc3ccccc3n21 | cytopathic effect / MTT | MT-4 | EC50 | ROD | >27.7 µM
Nc1nc(N)c(C=O)c(OCCOCP(=O)(O)O)n1 | syncytia | CEM | EC50 | ROD | 2.7 µM
Cn1ncc2c1S(=O)(=O)N(CCc1ccccc1)C(=O)N2CCc1ccc(Cl)cc1 | MTT | MT-4 | EC50 | ROD | >56.2 µM
O=S1(c2ccccc2)=NC(=S)Nc2ccccc21 | cytopathic effect / XTT | CEM + CEM-SS | EC50 | MS | >73 µM
O=c1[nH]cnc2c1ncn2[C@H]1CC[C@@H](CO)O1 | ELISA | PBMC | EC50 | 336 | 2.19 µM
Nc1nc2c(ncn2[C@H]2C[C@H](O)[C@@H](CO)O2)c(=O)[nH]1 | cytopathic effect / trypan blue | MT-4 | EC50 |  | >500 µM
Fc1cccc(F)c1C1SCc2nc3ccccc3n21 | cytopathic effect / MTT | MT-4 | EC50 | ROD | >48.6 µM
Cc1cn([C@H]2C[C@H](N=[N+]=[N-])[C@@H](CO)O2)c(=O)[nH]c1=O | cytopathic effect / XTT |  | EC50 | MS | 0.008 µM
Cc1c(Sc2ccccc2)n(COCCO)c(=O)[nH]c1=O | cytopathic effect / MTT | MT-4 | EC50 | EHO | >250 µM
Cc1cn([C@H]2C=C[C@@H](COP3(=O)OCc4ccc5ccccc5c4O3)O2)c(=O)[nH]c1=O | syncytia | CEM + CEM TK- | EC50 | ROD | 0.2 µM
Cc1cn([C@H]2C[C@H](N=[N+]=[N-])[C@@H](CO)O2)c(=O)[nH]c1=O | cytopathic effect | MT-4 | EC50 | LAV-2-ROD | 0.018 µg/mL
Cc1ccnc2c1NC(=O)c1cccnc1N2C1CC1 | MTT | MT-4 | EC50 | ROD | >4 µM
Nc1ncnc2c1ncn2[C@H]1C[C@@H](O)[C@@H](CO)O1 | cytopathic effect / trypan blue | MT-4 | EC50 |  | >500 µM
O=[N+]([O-])c1ccccc1S(=O)(=O)c1ccccc1 | cytopathic effect / XTT | CEM + CEM-SS | EC50 |  | >114 µM
N#Cc1c(N)nc(N)nc1OCCOCP(=O)(O)O | syncytia | CEM | EC50 | ROD | 4.5 µM
Cc1cn([C@H]2C[C@H](N=[N+]=[N-])[C@@H](CO)O2)c(=O)[nH]c1=O | plaque count | HT4 + HT4-6C | EC50 | ROD | 0.112 µM
COC(=O)N[C@H](C(=O)N[C@@H](Cc1ccccc1)[C@@H](O)CN(Cc1ccc(-c2ccccn2)cc1)NC(=O)[C@@H](NC(=O)OC)C(C)(C)C)C(C)(C)C | MTT | MT-2 | EC50 | ROD | 0.0077 µM
Cn1ncc2c1S(=O)(=O)N(CCc1ccccc1)C(=O)N2CCc1ccc(Br)cc1 | MTT | MT-4 | EC50 | ROD | >112.7 µM
Cc1cn([C@H]2C=C[C@@H](COP3(=O)OCc4cc(-c5ccccc5)ccc4O3)O2)c(=O)[nH]c1=O | syncytia | CEM + CEM/O | EC50 | ROD | 0.47 µM
Cn1c(=O)cc(Oc2nc(Nc3ccc(C#N)cc3)nc(Nc3ccccn3)n2)c2ccccc21 | MTT |  | EC50 | ROD | >74.1 µg/mL
CC(=O)Oc1ccc(/C=C/C(=O)O[C@H](C(=O)O)[C@H](OC(=O)/C=C/c2ccc(OC(C)=O)c(OC(C)=O)c2)C(=O)O)cc1OC(C)=O |  | MT-4 | EC50 | ROD | 5 µM
Cn1c(=O)cc(Oc2nc(Nc3ccc(C#N)cc3)nc(Sc3nc4ccccc4s3)n2)c2ccccc21 | MTT |  | EC50 | ROD | >72.78 µg/mL
COC(=O)C(Cc1c[nH]c2ccccc12)NP(=O)(OC[C@@H]1C=C[C@H](n2cc(C)c(=O)[nH]c2=O)O1)Oc1ccccc1 | syncytia | CEM + CEM TK- | EC50 | ROD | 1.3 µM
Nc1nc2c(ncn2COC(CO)CO)c(=O)[nH]1 | cytopathic effect / trypan blue | MT-4 | EC50 |  | >500 µM
Cc1cn([C@H]2C=C[C@@H](COP3(=O)OCc4cc5ccccc5cc4O3)O2)c(=O)[nH]c1=O | syncytia | CEM + CEM/O | EC50 | ROD | 0.5 µM
CC(C)CN(C[C@@H](O)[C@H](Cc1ccccc1)NC(=O)[C@@H](NC(=O)CNCc1cccc(F)c1)C(C)(C)C)S(=O)(=O)c1cccc(N)c1 | virus yield | MT-2 | EC90 |  | 0.01 µM
COc1cc(-c2ccc(C#N)cc2)ccc1Oc1nc(Nc2ccc(C#N)cc2)nc2ccsc12 | MTT | MT-4 | EC50 | ROD | 57.5 µM
Cc1ccc(CCN2C(=O)N(CCc3ccc(C)cc3)S(=O)(=O)c3c2cnn3C)cc1 | MTT | MT-4 | EC50 | ROD | >304.9 µM
COC(=O)C(C)(C)NP(=O)(OC[C@@H]1C=C[C@H](n2cc(C)c(=O)[nH]c2=O)O1)Oc1ccccc1 | syncytia | CEM + CEM TK- | EC50 | ROD Laboratory clade B | 0.06 µM
N#Cc1ccc(Nc2nc(Oc3ccc(-c4ccc(C#N)cc4)cc3C#N)c3sccc3n2)cc1 | MTT | MT-4 | EC50 | ROD | >124.5 µM
O=S1(c2ccccc2)=NC(=S)Nc2ccccc21 | cytopathic effect / XTT | CEM + CEM-SS | EC50 |  | >73 µM
Cn1c(=O)cc(Oc2nc(Nc3ccc(C#N)cc3)nc(Nc3nc4ccc(Br)cc4s3)n2)c2ccccc21 | MTT |  | EC50 | ROD | >14.5 µg/mL
COc1c(O)cc([C@H]2Oc3cc(O)cc(O)c3[C@@H](c3c(O)cc(O)c4c3O[C@H](c3cc(O)c(OC)c(O)c3)[C@H](O)C4)[C@@H]2O)cc1O | MTT | MT-4 | EC50 | ROD | >7.58 µg/mL
CC(C)CN(C[C@@H](O)[C@H](Cc1ccccc1)NC(=O)[C@@H](NC(=O)CNCc1cccc(F)c1)C(C)(C)C)S(=O)(=O)c1ccc(N)cc1 | virus yield | MT-2 | EC50 |  | <0.032 µM
COc1cc(NC(C)CCCN)c2ncccc2c1 | MTT | MT-4 | EC50 | ROD | >100 µM
N#Cc1ccc(Nc2nc(Oc3ccc(-c4ccc(C#N)cc4)cc3)c3sccc3n2)cc1 | MTT | MT-4 | EC50 | ROD | 41.1 µM

A second listing of 5 rows from above:

| structure | method | cells | read-out | strain or isolate | value |
|---|---|---|---|---|---|
| Cc1c(Sc2ccccc2)n(COCCO)c(=O)[nH]c1=O | cytopathic effect / MTT | MT-4 | EC50 | EHO | >250 µM |
| O=S1(c2ccccc2)=NC(=S)Nc2ccccc21 | cytopathic effect / XTT | CEM + CEM-SS | EC50 |  | >73 µM |
| Cn1ncc2c1S(=O)(=O)N(CCc1ccccc1)C(=O)N2CCc1ccc(Cl)cc1 | MTT | MT-4 | EC50 | ROD | >56.2 µM |
| Cc1cn([C@H]2C=C[C@@H](COP3(=O)OCc4ccc5ccccc5c4O3)O2)c(=O)[nH]c1=O | syncytia | CEM + CEM TK- | EC50 | ROD | 0.2 µM |
| Nc1nc2c(ncn2COC(CO)CO)c(=O)[nH]1 | cytopathic effect / trypan blue | MT-4 | EC50 |  | >500 µM |